# PSTVd loop 6 mutant pool in Nicotiana benthamiana

PSTVd intermediate strain, loop 6: wild type UGACCGCGAG, pool pattern UNNNCGNNNG; upper and lower strand joined, each 5' to 3', the first 5 letters being the upper strand, closing pairs included.

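A pool of all variants was put on leaves of three Nicotiana benthamiana plants. Progeny were sequenced from the inoculated region (day 5), the margin of the inoculated leaf (day 10) and systemic leaves (day 12).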

Numbers give reads per thousand; 0 = not seen among the reads, higher = more abundant.
Each value is the mean of three plants.
"Pool" is the share in the plasmid pool used as inoculum, on the same scale.
The inoculated region was read from the minus strand, the other sites from the plus strand.
IR is the inoculated region, LM the leaf margin, Sys the systemic leaves.
For reference, wild type rose from 20.7 per thousand in the pool to 195, 198, 203 (inoculated region), 629, 591, 734 (leaf margin) and 942, 870, 868 (systemic leaves).

With UCCUCGGAAG (pool 0.157) the assay gave IR 0.0598; LM 0; Sys 0. UCGUCGGGGG (pool 0.144) read IR 0.131; LM 0; Sys 0. UUCACGUCGG (pool 0.301) read IR 0.119; LM 0; Sys 0. UUGUCGCAGG (pool 0.275) read IR 0.0954; LM 0.00773; Sys 0. With UAUUCGUGCG (pool 0.301) the assay gave IR 0.100; LM 0; Sys 0. UACGCGUGGG (pool 0.105) read IR 0.107; LM 0.0169; Sys 0. UUGUCGUCUG (pool 0.458) read IR 0.113; LM 0; Sys 0. UUAACGGUCG (pool 0.301) gave IR 0.564; LM 0.0991; Sys 0.0263.

UACUCGGUUG (pool 0.275) gave IR 0.0710; LM 0; Sys 0. With UGCGCUUAGG (pool 0.0131) the assay gave IR 0; LM 0; Sys 0. UACCCUCGAG (pool 0.0261) read IR 0; LM 0; Sys 0. UUAACGAUUG (pool 0.497) gave IR 0.120; LM 0.0247; Sys 0. UCGUCGUUUG (pool 0.353) read IR 0.0659; LM 0.0169; Sys 0. For UUGGCGGAGG (pool 0.314) the result was IR 0.0715; LM 0; Sys 0. For UUCGCGAUCG (pool 0.248) the result was IR 0.102; LM 0.00920; Sys 0. For UCUGCGAUUU (pool 0.0131) the result was IR 0; LM 0; Sys 0.

UCAACGUAAG (pool 0.0654) read IR 0.677; LM 0.120; Sys 0. UGUCCGCGGG (pool 0.288) read IR 0.102; LM 0; Sys 0. For UCGGCGGGCG (pool 0.170) the result was IR 0.0601; LM 0; Sys 0. With UCUCCGAUGG (pool 0.261) the assay gave IR 0.149; LM 0.0168; Sys 0. UUUUCGAUCG (pool 0.261) gave IR 0.0592; LM 0.00773; Sys 0. With UCGCCGGAGG (pool 0.235) the assay gave IR 0.0719; LM 0; Sys 0. UGACUGGCCG (pool 0.0131) gave IR 0; LM 0; Sys 0. UAUCCGAAAG (pool 0.157) read IR 0.0949; LM 0.00920; Sys 0.

UUCUCGUACG (pool 0.209) read IR 0.0699; LM 0.00773; Sys 0. UGCCCGACUG (pool 0.288) gave IR 0.113; LM 0.00920; Sys 0. UUCCCGUAGG (pool 0.183) read IR 0.0782; LM 0; Sys 0. UUACCGGGUG (pool 0.235) gave IR 0.0836; LM 0; Sys 0.

The last 3 entries again:

sequence,pool,IR,LM,Sys
UGCCCGACUG,0.288,0.113,0.00920,0
UUCCCGUAGG,0.183,0.0782,0,0
UUACCGGGUG,0.235,0.0836,0,0

Samples held 36,220 to 57,551 reads, so the smallest values rest on one or two reads.
Sequences that differ at fixed positions probably stem from PCR or sequencing errors, and defective variants can be carried along by functional ones.

Reference: Wu et al. 2024, doi:10.1371/journal.ppat.1012142.